Measurements reported in patent US7932240B2, “Phosphadiazine HCV polymerase inhibitors IV” (dated 2011).

Amino acid sequences for entries named in this document (tags omitted). Residues count along the entry.
UniProt O92972, 2420-3010 limits assumed: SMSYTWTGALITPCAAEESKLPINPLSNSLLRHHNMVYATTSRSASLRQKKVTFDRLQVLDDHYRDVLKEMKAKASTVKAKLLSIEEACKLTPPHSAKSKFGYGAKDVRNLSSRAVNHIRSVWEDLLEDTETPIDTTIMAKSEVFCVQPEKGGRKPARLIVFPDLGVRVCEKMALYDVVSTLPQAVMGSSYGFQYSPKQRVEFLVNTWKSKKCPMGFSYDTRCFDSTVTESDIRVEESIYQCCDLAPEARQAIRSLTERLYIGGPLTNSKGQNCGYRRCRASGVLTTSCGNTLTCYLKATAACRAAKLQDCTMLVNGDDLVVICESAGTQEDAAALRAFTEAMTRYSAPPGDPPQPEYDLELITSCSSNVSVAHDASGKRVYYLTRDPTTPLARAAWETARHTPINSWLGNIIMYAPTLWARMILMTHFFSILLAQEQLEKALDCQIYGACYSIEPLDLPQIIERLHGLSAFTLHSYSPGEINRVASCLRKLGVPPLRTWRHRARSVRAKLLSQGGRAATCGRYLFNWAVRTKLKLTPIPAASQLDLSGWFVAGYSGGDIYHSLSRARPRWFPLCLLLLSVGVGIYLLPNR
UniProt P27958, 2421-3011 limits assumed: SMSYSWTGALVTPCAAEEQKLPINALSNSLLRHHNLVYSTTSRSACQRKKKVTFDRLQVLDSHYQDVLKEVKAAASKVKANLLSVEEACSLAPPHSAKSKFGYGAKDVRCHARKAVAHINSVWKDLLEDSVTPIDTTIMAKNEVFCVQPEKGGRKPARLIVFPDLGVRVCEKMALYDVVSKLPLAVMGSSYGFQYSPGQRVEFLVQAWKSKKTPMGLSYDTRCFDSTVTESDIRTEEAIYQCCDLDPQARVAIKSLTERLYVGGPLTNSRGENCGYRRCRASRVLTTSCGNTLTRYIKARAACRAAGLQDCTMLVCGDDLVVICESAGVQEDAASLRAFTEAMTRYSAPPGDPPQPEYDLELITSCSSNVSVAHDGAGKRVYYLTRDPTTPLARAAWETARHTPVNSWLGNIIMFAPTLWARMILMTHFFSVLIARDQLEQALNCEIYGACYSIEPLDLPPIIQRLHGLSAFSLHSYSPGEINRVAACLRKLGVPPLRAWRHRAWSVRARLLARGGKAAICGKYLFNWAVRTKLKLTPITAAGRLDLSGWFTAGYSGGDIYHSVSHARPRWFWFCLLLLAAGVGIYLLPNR

Tests used:
[1] = test system: HCV Con1 subgenomic replicon (genotype 1b) in Huh-7 cells (GS4.1 cells); experiment: HCV replicon assay (NS4A ELISA)
[2] = test system: Huh-7 cells containing HCV Con1 subgenomic replicon (GS4.1 cells); experiment: Cytotoxicity (CC50, viability) alongside the HCV replicon assay
[3] = target: HCV genotype 1b polymerase (strain J4) (Hepatitis C virus genotype 1b, UniProt O92972); experiment: HCV polymerase assay (BrUTP incorporation ELISA), genotype 1b; details: read-out: IC50-1b; Table 2
[4] = target: HCV genotype 1a polymerase (Hepatitis C virus genotype 1a, UniProt P27958); experiment: HCV polymerase assay (BrUTP incorporation ELISA), genotype 1a; details: Table 2
[5] = target: human DNA polymerase beta (Homo sapiens, UniProt P06746); experiment: Human cellular DNA polymerase beta assay; details: read-out: Mean IC50 Values (μM) ± Standard Deviation, human DNA polymerase beta; Table 9; N = 2
[6] = target: human DNA-dependent RNA polymerase II (Homo sapiens, UniProt P24928+P30876); experiment: RNA polymerase II transcription assay (HeLaScribe nuclear extract); details: run-off transcript band intensity; compound at 100 μM; N = 1
[7] = Table 1, NS4A expression by ELISA after 72 hours, two values per cell

Molecule	EC50 [1, 7]	CC50 ([2]; Table 1, two values per cell)	also measured
CCOP1(=O)N=C(C2=C(O)C(C3CCC3)N(CCC(C)(C)C)C2=O)Nc2ccc(NS(C)(=O)=O)cc21 (stereo not shown)	468 nM and 305 nM	> 75000 nM	–
CCOP1(=O)N=C(C2=C(O)C(C(C)(C)C)N(Cc3ccc(F)c(F)c3)C2=O)Nc2ccc(NS(C)(=O)=O)cc21 (stereo not shown)	22.6 nM and 14.5 nM	> 75000 nM	–
CCOP1(=O)N=C(C2=C(O)C(C(C)(C)C)N(CCC(C)(C)C)C2=O)Nc2ccc(NS(C)(=O)=O)cc21 (stereo not shown)	1.09 nM and 1.8 nM	> 75000 nM	EC50 ([1]; read-out: EC50-1b, Table 2, replicon genotype 1b): 6.5 nM; IC50 [3]: 12 nM; 1a/1b FC ([4]; polymerase 1a versus 1b): 5; IC50 ([4]; read-out: IC50-1a): 61 nM; CC50 ([2]; Table 2): > 75000 nM
CCOP1(=O)N=C(C2=C(O)C(C(C)(C)C)N(Cc3ccc(F)c(OC)c3)C2=O)Nc2ccc(NS(C)(=O)=O)cc21 (stereo not shown)	–	> 75000 nM	–
Actinomycin D	–	–	IC50 [5]: 11.6 µM; Percent of positive control [6]: 5.7%
CCOc1ccc2c(c1)NC(C1=C(O)C(C(C)(C)C)N(CCC(C)(C)C)C1=O)=NP2(=O)OCC (stereo not shown)	7390 nM and 8030 nM	32000 nM and 35900 nM	–

Where “and” joins values, the source holds several entries; their conditions need not be identical. Equal values may be shown once. Read-outs that look alike come from different tables or passages of the source.
